Common to all, as to assay: EMSA
In data set [1] the target is AP2-EXP AP2 domain (Plasmodium falciparum) (UniProt Q8IKH2). The conditions noted are these: DMSO vehicle or no compound; EMSA: 10 mM Tris pH 7.5, 50 mM KCl, 1 mM DTT, 6 mM MgCl2, 60 ng/uL poly dIdC, 65 ng BSA; 125 ng AP2-EXP or PbAP2-Sp, 40-150 fmol probe; 15 min protein + compound; recombinant protein; label: 5' biotin on forward strand.
The subject of data set [2] is PfSIP2 Domain 1 (Plasmodium falciparum). The conditions noted are these: EMSA: 10 mM Tris pH 7.5, 50 mM KCl, 1 mM DTT, 6 mM MgCl2, 60 ng/uL poly dIdC, 65 ng BSA; 125 ng AP2-EXP or PbAP2-Sp, 40-150 fmol probe; 15 min protein + compound; recombinant protein; label: 5' biotin on forward strand. On the technique in general: In EMSA bound probe runs differently from free probe, usually more slowly.

Data set [3] deals with AP2-I Domain 3 (Plasmodium falciparum) (UniProt Q8IJW6). The following applies: EMSA: 10 mM Tris pH 7.5, 50 mM KCl, 1 mM DTT, 6 mM MgCl2, 60 ng/uL poly dIdC, 65 ng BSA, 125 ng AP2-EXP or PbAP2-Sp, 40-150 fmol probe, 15 min protein + compound, recombinant protein, label: 5' biotin on forward strand.
The subject of data set [4] is AP2-HS Domain 1 (Plasmodium falciparum). The following applies: EMSA: 10 mM Tris pH 7.5, 50 mM KCl, 1 mM DTT, 6 mM MgCl2, 60 ng/uL poly dIdC, 65 ng BSA, 125 ng AP2-EXP or PbAP2-Sp, 40-150 fmol probe, 15 min protein + compound, recombinant protein, label: 5' biotin on forward strand.

The exact form of at least one protein or probe is not confirmed. For some assays here: No signal at the amounts used counts as a negative. At least one verdict was read from the data and is not stated in words by the source.

We go through 4 sequences from publication PMC9591056, “Inhibitors of ApiAP2 protein DNA binding exhibit multistage activity against Plasmodium parasites” (PLOS Pathogens, 2022).

As for “ACTACACACCTAACTATGCATGCATCAATATAGTGGATTA (double strand) [AP2-EXP gel shift probe]”, in data set [1], the binding result is listed as “binds”.

For the sequence “AGGTGCACCTAGGTGCACCT (double strand) [PfSIP2 gel shift probe]”, the binding result in data set [2] was “binds”.

In the case of “ATTAATTTAATATGTACGCAAGGTGCACACTGGTGCATTAAAAAAAAAATATATATTAAT (double strand) [AP2-I gel shift probe]”, the binding result in data set [3] (300 uM Compound B-2), in data set [3] (300 uM Compound B-3) and in data set [3] was “binds” each time.

As to “TTTTAAAAAAAAAAAAAAAGCCCCGCGGAAAGGGGCCATTGGATATATATTTAGTATTCC (double strand) [AP2-HS gel shift probe]”, the binding result in data set [4] (300 uM Compound B) is on record as “no binding”; in data set [4] (300 uM Compound I), “no binding”; in data set [4], “binds”.
